Pooled drug test results. Numbers come from NIAID ChemDB, via PubChem.

Common to all: tests in culture; organism: HIV-1; cells: MT-4; endpoint: EC50

ECn is the concentration giving n% inhibition of infection, replication or growth. An empty or dashed field is not shown. Neighbouring rows are from separate reports.

SMILES | strain | mutations | method | result
CC(C)=CCN1c2cc(Cl)cc3[nH]c(=S)n(c23)C[C@@H]1C | - | RT-L74V Y181C | - | >3 µM
Cc1cc(C#Cc2cccc(N)c2)cc(C)c1Oc1ccnc(NC2CCN(Cc3cccc(C(N)=O)c3)CC2)n1 | IIIB | K103N | MTT | 0.143 µM
O=C1N(Cc2ccc(CO)cc2)[C@H](Cc2ccccc2)[C@H](O)[C@@H](O)[C@@H](Cc2ccccc2)N1Cc1ccc(CO)cc1 | NL4-3 | - | p24 | <0.2 µM
c1ccc(-c2cc(CN3CCCNCCNCCCNCC3)cc(CN3CCCNCCNCCCNCC3)c2)cc1 | NL4-3 | AMD3100-resistant | cytopathic effect / MTT | 0.42 µg/mL
C#Cc1ccc(Nc2nccc(Oc3c(C)cc(-c4cn(CC(=O)OC)nn4)cc3C)n2)cc1 | IIIB | E138K | MTT | >10.35 µM
CC(C)Nc1cccnc1N1CCN(C(=O)c2cc3cc(NS(C)(=O)=O)ccc3[nH]2)CC1 | IIIB | E138K | MTT | 0.069 µM
CC(C)CN(C[C@@H](O)[C@H](Cc1ccccc1)NC(=O)O[C@H]1CCOC1)S(=O)(=O)c1ccc(N)cc1 | NL4-3 | L23I E34Q K43I M46I I50L G51A L63P A71V V82A T91A | p24 / luminescence | 0.263 µM
c1ncc(CN2CCCNCCNCCCNCC2)cc1CN1CCCNCCNCCCNCC1 | AOM | - | cytopathic effect / MTT | 0.05 µg/mL
Cc1cn([C@H]2C[C@H](N=[N+]=[N-])[C@@H](CO)O2)c(=O)[nH]c1=O | IIIB | Y181C | MTT | 0.005 µM
C#Cc1ccc(Nc2nccc(Oc3c(C)cc(-c4cn(Cc5ccc(C#N)cc5)nn4)cc3C)n2)cc1 | IIIB | E138K | MTT | 0.56 µM
CC(C)(C)NC(=O)[C@@H]1C[C@@H]2CCCC[C@@H]2CN1C[C@@H](O)[C@H](Cc1ccccc1)NC(=O)[C@H](CC(N)=O)NC(=O)c1ccc2ccccc2n1 | NL4-3 | L10F M46I I54V V82A LPV resistant | - | 0.025 µM
CCN[C@H]1CO[C@@H]2OCC[C@H](OC(=O)N[C@@H](Cc3cccc(OC)c3)[C@H](O)CN(CC(C)C)S(=O)(=O)c3ccc4nc(NC(C)C)sc4c3)[C@@H]21 | NL4-3 | - | p24 / luminescence | 0.0035 µM
COC(=O)N[C@H](C(=O)N[C@@H](Cc1ccccc1)[C@@H](O)CN(Cc1ccc(-c2ccccn2)cc1)NC(=O)[C@@H](NC(=O)OC)C(C)(C)C)C(C)(C)C | NL4-3 | L23I E34Q K43I M46I I50L G51A L63P A71V V82A T91A ATV resistant | - | >1 µM
Cc1cc(C#Cc2cccc(N)c2)cc(C)c1Oc1ccnc(NC2CCN(Cc3ccc(C(N)=O)cc3)CC2)n1 | IIIB | K103N | MTT | 0.026 µM
Nc1ccn([C@H]2CC[C@@H](CO)O2)c(=O)n1 | 263 | - | p24 | 0.35 µM
CC(C)c1nc(CN(C)C(=O)N[C@H](C(=O)N[C@@H](Cc2ccccc2)C[C@H](O)[C@H](Cc2ccccc2)NC(=O)OCc2cncs2)C(C)C)cs1 | NL4-3-P28 (PR M46I I84V) | PR-M46I I84V | p24 | <0.9 µM
Cc1cc(C#Cc2ccc(C(F)(F)F)cc2)cc(C)c1Oc1ccnc(Nc2ccc(C#N)cc2)n1 | IIIB | RES056 | MTT | >7.353 µM
CCN[C@H]1CO[C@@H]2OCC[C@H](OC(=O)N[C@@H](Cc3ccccc3)[C@H](O)CN(CC(C)C)S(=O)(=O)c3ccc4nc(NC5CC5)sc4c3)[C@@H]21 | NL4-3 | - | p24 / luminescence | 0.0025 µM
C#Cc1ccc(Nc2nccc(Oc3c(C)cc(-c4cn(CCCC(=O)OC)nn4)cc3C)n2)cc1 | RES056 | - | MTT | >20.15 µM
CC(C)CN(C[C@@H](O)[C@H](Cc1ccccc1)NC(=O)O[C@H]1CO[C@H]2OCC(F)(F)[C@H]21)S(=O)(=O)c1ccc(N)cc1 | NL4-3 | L10F M46I I54V V82A LPV resistant | - | 0.03 µM
Cc1ccnc2c1NC(=O)c1cccnc1N2C1CC1 | IIIB | - | MTT | 0.118 µM
c1cc(CN2CCCNCCCNCCNCCC2)ccc1CN1CCCNCCCNCCNCCC1 | AOM | - | cytopathic effect / MTT | 0.14 µg/mL
CC(C)CN(C[C@@H](O)[C@H](Cc1ccccc1)NC(=O)O[C@H]1CCO[C@H]2OCC[C@H]21)S(=O)(=O)c1ccc2nc(NC3CC3)sc2c1 | NL4-3 | L10I I54V K20R L24I V32I L33F M36I M46I I54M L63P K70Q V82I I84V L89M | p24 / luminescence | >1 µM
C#Cc1ccc(Nc2nccc(Oc3c(C)cc(-c4cn(CC(=O)Nc5ccc(F)cc5)nn4)cc3C)n2)cc1 | IIIB | L100I | MTT | >1.41 µM
Cc1cn([C@H]2C[C@H](N=[N+]=[N-])[C@@H](CO)O2)c(=O)[nH]c1=O | KK-1 | - | cytopathic effect / trypan blue | 0.003 µM
C#Cc1ccc(Nc2nccc(Oc3c(C)cc(-c4cn(Cc5ccc(C(N)=O)cc5)nn4)cc3C)n2)cc1 | IIIB | Y188L | MTT | 1.33 µM
CN[C@H]1CO[C@@H]2OCC[C@H](OC(=O)N[C@@H](Cc3cccc(OC)c3)[C@H](O)CN(CC(C)C)S(=O)(=O)c3ccc4nc(NC(C)C)sc4c3)[C@@H]21 | NL4-3 | L10I M46L I54V V82A | p24 / luminescence | 0.0087 µM
Nc1ccn([C@H]2CC[C@@H](CO)O2)c(=O)n1 | IIIB | - | p24 | 0.45 µM
COC(=O)c1cc(CN2CCCNCCNCCCNCC2)ccc1CN1CCCNCCNCCCNCC1 | NL4-3 | AMD3100-resistant | cytopathic effect / MTT | >25 µg/mL
Cc1cc(C#Cc2cccc(N)c2)cc(C)c1Oc1ccnc(NC2CCN(c3cccc(C(N)=O)c3)CC2)n1 | IIIB | L100I | MTT | >1.063 µM
CC(C)(C)NC(=O)[C@@H]1C[C@@H]2CCCC[C@@H]2CN1C[C@@H](O)[C@H](Cc1ccccc1)NC(=O)[C@H](CC(N)=O)NC(=O)c1ccc2ccccc2n1 | NL4-3 | PR-L10R | p24 | <0.05 µM
C#Cc1ccc(Nc2nccc(Oc3c(C)cc(-c4cn(-c5ccc(C(=O)O)cc5)nn4)cc3C)n2)cc1 | IIIB | - | MTT | 0.065 µM
Cc1cc(C#Cc2ccccc2)cc(C)c1Oc1ccnc(NC2CCN(Cc3ccc(S(N)(=O)=O)cc3)CC2)n1 | IIIB | Y181C | MTT | 0.103 µM
CC(C)(C)NC(=O)[C@@H]1C[C@@H]2CCCC[C@@H]2CN1C[C@@H](O)[C@H](Cc1ccccc1)NC(=O)[C@H](CC(N)=O)NC(=O)c1ccc2ccccc2n1 | IIIB | PR-V82A | cytopathic effect / XTT | 0.013 µM
Cc1cc(C#Cc2cccc(N)c2)cc(C)c1Oc1ccnc(NC2CCN(Cc3ccc(C#N)cc3)CC2)n1 | IIIB | Y181C | MTT | >0.261 µM
C#Cc1ccc(Nc2nccc(Oc3c(C)cc(-c4cn(CCc5ccccc5)nn4)cc3C)n2)cc1 | IIIB | Y188L | MTT | >5.66 µM

Repeating the first 3 entries:

{"SMILES": "CC(C)=CCN1c2cc(Cl)cc3[nH]c(=S)n(c23)C[C@@H]1C", "mutations": "RT-L74V Y181C", "result": ">3 µM"}
{"SMILES": "Cc1cc(C#Cc2cccc(N)c2)cc(C)c1Oc1ccnc(NC2CCN(Cc3cccc(C(N)=O)c3)CC2)n1", "strain": "IIIB", "mutations": "K103N", "method": "MTT", "result": "0.143 µM"}
{"SMILES": "O=C1N(Cc2ccc(CO)cc2)[C@H](Cc2ccccc2)[C@H](O)[C@@H](O)[C@@H](Cc2ccccc2)N1Cc1ccc(CO)cc1", "strain": "NL4-3", "method": "p24", "result": "<0.2 µM"}